A mixed list of measured activities; the numbers were collected in NIAID ChemDB.

Shared fields: growth or infection tests; organism: Aspergillus niger; read-out: MFC

An empty or dashed field is not shown.

{"structure": "C=C(C(=O)O[C@H]1C[C@]2(C)[C@H]([C@@H](CO)CC[C@H]2O)[C@H]2OC(=O)C(=C)[C@@H]21)C(O)COC(C)=O", "strain": "ATCC 6275", "value": "1 µg/mL"}
{"structure": "O=C(Nc1nc2ccccc2[nH]1)c1cn[nH]c1C(=O)c1ccc(Cl)cc1", "read by": "broth dilution", "value": "1.25 µg/mL"}
{"structure": "Fc1ccc(CO/N=C2\\c3ccccc3OCC2n2cncn2)cc1", "strain": "ATCC 16401", "value": "16 µg/mL"}
{"structure": "OB1OC(N2CCN(C3OB(O)c4ccccc43)CC2)c2ccccc21", "read by": "turbidity", "value": "0.9 µg/mL"}
{"structure": "Clc1ccc(CO/N=C2/c3ccc(Cl)cc3OCC2n2cncn2)c(Cl)c1", "strain": "ATCC 16401", "value": "64 µg/mL"}
{"structure": "Fc1cc(F)c(B2Oc3ccccc3O2)c(F)c1", "read by": "turbidity", "value": "250 µg/mL"}
{"structure": "C=C(C(=O)O[C@H]1C[C@]2(C)[C@H]([C@@H](CO)CC[C@H]2O)[C@@H](O)[C@@H]1C(=C)C(=O)OC)C(O)COC(C)=O", "strain": "ATCC 6275", "value": "2 µg/mL"}
{"structure": "Clc1ccc(CO/N=C2/c3ccc(Cl)cc3OCC2n2cnnc2)cc1", "strain": "ATCC 16401", "value": "64 µg/mL"}
{"structure": "OB1OC(N2CCOCC2)c2ccccc21", "read by": "turbidity", "value": "62.5 µg/mL"}
{"structure": "C[C@H]1[C@H](O)[C@@H](C)/C=C/C=C/C=C/C=C/C=C/C=C/C=C/[C@H](O[C@@H]2O[C@H](C)[C@@H](O)[C@H](N)[C@@H]2O)C[C@@H]2O[C@](O)(C[C@@H](O)C[C@@H](O)CC[C@H](O)[C@@H](O)C[C@@H](O)CC(=O)O[C@H]1C)C[C@H](O)[C@H]2C(=O)O", "read by": "visual reading", "strain": "ATCC 16404", "value": "1 µg/mL"}
{"structure": "COc1cc(/C=C/C(C)=O)ccc1O", "read by": "broth dilution", "strain": "MTCC 218", "value": "880 µM"}
{"structure": "Clc1cccc(Cl)c1CO/N=C1/c2ccccc2OCC1n1cncn1", "strain": "ATCC 16401", "value": ">64 µg/mL"}
{"structure": "C[C@H]1[C@H](O)[C@@H](C)/C=C/C=C/C=C/C=C/C=C/C=C/C=C/[C@H](O[C@@H]2O[C@H](C)[C@@H](O)[C@H](N)[C@@H]2O)C[C@@H]2O[C@](O)(C[C@@H](O)C[C@@H](O)CC[C@H](O)[C@@H](O)C[C@@H](O)CC(=O)O[C@H]1C)C[C@H](O)[C@H]2C(=O)O", "read by": "broth dilution", "value": "2 µM"}
{"structure": "CCC1/C=C/C=C/C=C/C=C/C(OC2OC(C)C(O)C(N)C2O)CC2OC(O)(CC(O)CC(O)C(O)/C=C/C(=O)OC1C)CC(O)C2C(=O)O", "read by": "broth dilution", "strain": "CGMCC 3.6478", "value": "11.25 µg/mL"}
{"structure": "Clc1ccc(CO/N=C2/c3ccccc3OCC2n2cnnc2)cc1", "strain": "ATCC 16401", "value": ">64 µg/mL"}
{"structure": "C=C[C@]1(C)C[C@H](OC(=O)C(=C)C(O)CO)[C@H]2C(=C)C(=O)O[C@@H]2[C@H]1C(=C)CO", "strain": "ATCC 6275", "value": "0.5 µg/mL"}
{"structure": "C[C@H]1[C@H](O)[C@@H](C)/C=C/C=C/C=C/C=C/C=C/C=C/C=C/[C@H](O[C@@H]2O[C@H](C)[C@@H](O)[C@H](N)[C@@H]2O)C[C@@H]2O[C@](O)(C[C@@H](O)C[C@@H](O)CC[C@H](O)[C@@H](O)C[C@@H](O)CC(=O)O[C@H]1C)C[C@H](O)[C@H]2C(=O)O", "read by": "broth dilution", "strain": "ATCC 16404", "value": "4 µg/mL"}

A second listing of 2 rows from above:

structure,read by,strain,value
O=C(Nc1nc2ccccc2[nH]1)c1cn[nH]c1C(=O)c1ccc(Cl)cc1,broth dilution,-,1.25 µg/mL
CCC1/C=C/C=C/C=C/C=C/C(OC2OC(C)C(O)C(N)C2O)CC2OC(O)(CC(O)CC(O)C(O)/C=C/C(=O)OC1C)CC(O)C2C(=O)O,broth dilution,CGMCC 3.6478,11.25 µg/mL

Neighbouring rows are from separate reports.